Test [1] concerns the target Mu CoV S glycoprotein (recombinant). Description: ELISA, plate coated with rS, serial dilution of the mAb, anti-mouse HRP, A450.
Test [2] deals with XBB CoV S glycoprotein (recombinant). The test can be described thus: ELISA on coated rS. (An ELISA detects its analyte on a solid surface through an enzyme-linked reagent.)
Test [3] has the same target. Description: hACE2 receptor inhibition ELISA on coated rS; competitor hACE2-His.
The target is the same in test [4]. The test can be described thus: ELISA on coated rS. The source holds these as a separate data set.
Test [5] shares this target. The test can be described thus: hACE2 receptor inhibition ELISA on coated rS; competitor hACE2-His. The source holds these as a separate data set.
Test [6] has as its target Mu CoV S glycoprotein (recombinant). The test can be described thus: ELISA on coated rS.
Test [7] has the same target. Description: hACE2 receptor inhibition ELISA on coated rS; competitor hACE2-His.
The target is the same in test [8]. Description: ELISA, plate coated with rS, serial dilution of the mAb, anti-mouse HRP, A450. The source holds these as a separate data set.

Like-named read-outs stand apart in the source and are kept apart here.

By EC50 is commonly meant the concentration at which the effect is half-maximal. As usually defined, the IC50 is the concentration needed to halve the response being measured.

B1: 322.3 (antibody, V domains shown)
VH: RVQLQQSGPELVKPGASVTISCKASGYIFTSDYIHWVKQRPGQGPEWIGWIYPGNINTKYNEKFKGKATLTADKSSSTAYMQLSSLTSEDSAVYFCARDDGNLYYYAMDYWGQGTSVTVSS
VL: NIVLTQSPASLAVSLGQRATISCRASESVDSYGSSFMHWYQQKPGQPPKLLIYLASNLESGVPARFSGSGSRTDFTLTIDPVEADDAATYYCQQNNEDPRTFGGGTKLEIK
In the case of B1, the EC50 was 0.151 µg/mL in test [1] and 0.111 µg/mL in test [2]. The concentration for half-maximal inhibition (IC50) in test [3] was 0.13 µg/mL.

B2: 199.9 (antibody, V domains shown)
VH: LVQLQQPGAELVKPGASVKLSCKASGYTFTSYFMYWVRQRPGQGLEWIGEINPSNGGNDFNEKFKSKATLTVDKSSSTAYMQLSSLTSEDSAVYYCTRSGDYGYDGFAYWGQGTLVTVSA
VL: NIVLTQSPASLAVSLGQRATISCRASESVDTYGNSFMHWYQQKPGQPPKLLIYLASNLESGVPARFSGSGSRTDFTLTIDPVEADDAATYYCQQNNEDPLTFGAGTKLELK
Consider B2, for which, in test [4], the EC50 was found to be 3.87 µg/mL. The IC50 in test [5] came to 3.78 µg/mL.

B3: 35.13 (antibody, V domains shown)
VH: QVQLQQSGAELGKPGASVKLSCRASGYTFTRYYIYWVKQRPGQGLEWIGEINPSNGDTHFNEKFKTKATLTVDKSSSSAHIHLTSLTSEDSAVYYCSIHAYSFDFWGQGTTLTVSS
VL: EIQMTQSPSSMSASLGDRITITCQATQDIVKNLNWYQQKPGKPPSFLIYHATELAKGVPSRFSGSGSGSDYSLTISNLESEDFADYYCLQFYDFPFTFGAGTKLELKR
Take B3: the EC50 in test [6] was 0.179 µg/mL. In addition, the IC50 in test [7] was 0.982 µg/mL; in test [3] it was over 3 µg/mL.

B4: 239.12 (antibody, V domains shown)
VH: EVKLEESGPVLVKPSQSLSLTCTVTGYSITSDYAWNWIRQFPGNKLEWMGYISNSAGTSYNPSLKSRISITRDTSKNQFFLQLNSVTTEDTATYYCASGGWSSYYAMDYWGQGTSVTVSS
VL: DIQMTQSPASLSASVGETVTITCGASENIYGALNWYQRKQGKSPQLLIYGATNLADGMSSRFSGSGSGRQYSLKISSLHPDDVATYYCQNVLSTPYTFGGGTKLEIKR
As for B4, the IC50 in test [3] was over 3 µg/mL.

B5: 425.6 (antibody, V domains shown)
VH: VQLKQSGPSLVQPSQSLSITCTVSGFSLTSYGIHWVRQSPGKGLEWLGVIWRGGSTDYNAAFMSRLTITKDNSKSQVFFKMNSLQADDTAIYYCATHTEGDDVDYWGQGTSVTVSS
VL: QIVLTQSPAIMSVSPGEKVTMTCSASSTMSFMYWYQQKPGSSPRLLIYDTSNLASGVPVRFSGSGSGTSYSLTISRVEAEDAATYYCQQWNTYPLTFGAGTKLELKR
For B5, in test [8], the EC50 came to 0.019 µg/mL. Further, the IC50 in test [3] is over 3 µg/mL.

(Values after patent publication US20250066456A1 (NOVAVAX, published 2025).)
